In the assay the target is SARS-CoV-2 RBD variant printed 'G446V' a second time (Table 10, row 15).

We go through one molecule from patent publication US20220403009A1 (IGM BIOSCIENCES, published 2022).

B1: Ab4 IgM (antibody)
VH: QVQLVESGGGVVQPGRSLRLSCAASGFTFSNYAMYWVRQAPGKGLEWVAVISYDGSNKYYADSVKGRFTISRDNSKNTLYLQMNSLRTEDTAVYYCASGSDYGDYLLVYWGQGTLVTVSS
VL: QSALTQPASVSGSPGQSITISCTGTSSDVGGYNYVSWYQQHPGKAPKLMIYDVSKRPSGVSNRFSGSKSGNTASLTISGLQSEDEADYYCNSLTSISTWVFGGGTKLTVL
chain: not shown
In turn, B1 came in with a Kd of 2.3 nM.

One may read the Kd as the concentration at which binding is half-saturated.
